Measured values from several laboratories, pooled; numbers as filed in NIAID ChemDB.

Common to all: enzyme or target tests; agent: Hepatitis C virus

Blank or dashed fields: not listed here.

compound	protein	dose	read-out	value
CCC(Oc1ccccc1)C(=O)N[C@H](C(=O)N1C[C@H](OCc2ccccc2)C[C@H]1C(=O)N[C@H](C=O)CC)C(C)C	NS3 protease		Ki	>100 µM
Cc1cccc(-c2ccc(CN(C(=O)c3ccc(Cl)cc3Cl)[C@@H](Cc3ccccc3)C(=O)O)o2)c1	RNA-dependent RNA polymerase		IC50	<5 µM
O=C(Nc1ccsc1-c1nc(C(=O)O)c(O)c(=O)[nH]1)OCCc1ccccc1	HCV polymerase		IC50	<25 µM
O=C(O)c1cnn2c(C3CCCCC3)c(-c3cccc(Oc4cccc(OC(F)(F)F)c4)c3)cnc12	RNA-dependent RNA polymerase		IC50	>10 µM
O=C(O)CCC(=O)N[C@H](C(=O)N[C@@H](CCC(=O)O)C(=O)N[C@@H](CCC(=O)O)C(=O)N[C@@H](CS)C(=O)O)C1CCCCC1	Nonstructural protein 3 NTPase/helicase	1.67 µM	inhibition	11%
O=C(O)c1ccc2c(c1)nc(-c1ccc3nc(-c4cc(C(=O)N5CCCC5)ccc4-c4ccc(F)cc4)ccc3c1)n2C1CCCCC1	NS5B polymerase	100 µM	inhibition	102%
CNC(=O)c1c(-c2ccc(F)cc2)oc2cc(-c3c(C)noc3C)c(OCCN3CCOCC3)cc12	Nonstructural protein 5B		IC50	≤0.5 µM
O=C(CC1NCCc2ccccc21)Nc1ccsc1-c1nc(C(=O)O)c(O)c(=O)[nH]1	HCV polymerase		IC50	<25 µM
CN(C(=O)c1ccccc1Br)c1cc(-c2ccccc2)sc1C(=O)O	NS3 ATPase		IC50	5–20 µM
CNC(=O)c1c(-c2ccc(F)cc2)oc2cc(-c3ccc(S(C)(=O)=O)cc3)c(OC(C)C)cc12	Nonstructural protein 5B		IC50	≤0.5 µM
CC(C)CNC(C(=O)Nc1ccsc1-c1nc(C(=O)O)c(O)c(=O)[nH]1)c1ccccc1	HCV polymerase		IC50	<25 µM
O=C(O)CCC(=O)N[C@H](C(=O)N[C@@H](CCC(=O)O)C(=O)N[C@@H](CCC(=O)O)C(=O)N[C@@H](CS)C(=O)O)C(c1ccccc1)c1ccccc1	Nonstructural protein 3 NTPase/helicase	1.67 µM	inhibition	41%
CCN(c1cc2oc(-c3ccc(F)cc3)c(C(=O)NC)c2cc1OCc1cccc2c1C(=O)OC(C)(C)O2)S(C)(=O)=O	Nonstructural protein 5B		IC50	≤0.5 µM
CCC(C)[C@H](NC(=O)[C@@H](NC(=O)CCC(=O)O)C1CCCCC1)C(=O)N[C@@H](CCC(=O)O)C(=O)NC1(C(=O)O)CC1	Nonstructural protein 3 NTPase/helicase		IC50	>167 µM
Cc1ccccc1S(=O)(=O)Nc1cc(-c2ccoc2)sc1C(=O)O	NS3 ATPase		IC50	<5 µM
O=C(Cc1ccccc1)Nc1cscc1-c1nc(C(=O)O)c(O)c(=O)[nH]1	HCV polymerase		IC50	<25 µM
CC[C@@H](C=O)NC(=O)[C@@H]1C[C@@H](OCc2ccccc2)CN1C(=O)[C@@H](NC(=O)Cc1ccccc1[N+](=O)[O-])C(C)C	NS3 protease		Ki	>100 µM
O=C(O)c1ccc2c(c1)nc(-c1ccc3ncc(-c4ccccc4)nc3c1)n2C1CCCCC1	NS5B polymerase	33 µM	inhibition	84.42%
CC(C)C[C@@]1(C(=O)O)C[C@@H](c2ccno2)[C@H](c2nccs2)N1C(=O)c1ccc(C(C)(C)C)cc1	RNA-dependent RNA polymerase		IC50	<50 µM
O=C(Nc1ccsc1-c1nc(C(=O)O)c(O)c(=O)[nH]1)OCc1cc(Cl)ccc1[N+](=O)[O-]	HCV polymerase		IC50	<25 µM
CNC(=O)c1c(-c2ccc(F)cc2)oc2cc(-c3cn[nH]c3C)c(OC(C)C)cc12	Nonstructural protein 5B		IC50	≤0.5 µM
COc1cc(CCC2(C3CCCC3)CC(O)=CC(=O)O2)ccc1O	Nonstructural protein 5B		IC50	1–10 µM
O=C(O)[C@H](Cc1ccccc1)N(Cc1ccc(-c2cc(F)cc(F)c2)o1)C(=O)c1ccc(Cl)cc1Cl	RNA-dependent RNA polymerase		IC50	<5 µM
CNC(=O)c1c(-c2ccc(F)cc2)oc2cc(N(C)S(C)(=O)=O)c(OCC#N)cc12	Nonstructural protein 5B		IC50	≤0.5 µM
COc1ccc(CCC2(C3CCCC3)CC(=O)CC(=O)O2)c(OC)c1	Nonstructural protein 5B		IC50	10–50 µM
CC(C)C[C@H](NC(=O)[C@H](CCC(N)=O)NC(=O)[C@@H](NC(=O)CCC(=O)O)C1CCCCC1)C(=O)N[C@@H](CS)C(=O)O	Nonstructural protein 3 NTPase/helicase	16.7 µM	inhibition	71%
COc1ccc(-c2ccco2)c(-c2ccc3cc(-c4nc5cc(C(=O)O)ccc5n4C4CCCCC4)ccc3n2)c1	NS5B polymerase	33 µM	inhibition	98.26%
Cc1nc([C@@H]2C[C@@](CC(C)C)(C(=O)O)N(C(=O)c3ccc(C(C)(C)C)cc3)[C@H]2c2cccs2)n[nH]1	RNA-dependent RNA polymerase		IC50	<50 µM
COc1ccc(CCC2(C3CCCC3)CC(O)=C(Sc3n[nH]c(N)n3)C(=O)O2)cc1	Nonstructural protein 5B		IC50	1–10 µM
COC(=O)c1cc2nc(-c3cccs3)cc(C(F)(F)F)n2n1	RNA-dependent RNA polymerase		IC50	>10 µM
CC[C@H](NC(=O)[C@H](CC(C)C)NC(=O)[C@@H](NC(=O)[C@@H](NC(=O)c1cnccn1)C(C)C)C(C)C)C(=O)C(=O)NCc1ccccc1	NS3 protease		Ki	1–100 µM
CC(C)[C@H](NC(=O)[C@@H](NC(=O)CCC(=O)O)C1CCCCC1)C(=O)N[C@@H](CCC(=O)O)C(=O)N[C@@H](CS)C(=O)O	Nonstructural protein 3 NTPase/helicase	167 µM	inhibition	68%
COc1cc(C(=O)N2[C@@H](c3nccs3)[C@H](c3cc(C)no3)C[C@@]2(CC(C)C)C(=O)O)ccc1C(C)(C)C	RNA-dependent RNA polymerase		IC50	<50 µM
CC[C@@H](C=O)NC(=O)[C@@H]1C[C@@H](OCc2ccc3nc(C(F)(F)F)ccc3c2Cl)CN1C(=O)[C@@H](NC(=O)[C@@H](NC(=O)c1cnccn1)C(C)C)C(C)C	NS3 protease		Ki	1–100 µM
C=CCN(C(=O)Cc1c(Cl)cccc1Cl)c1cc(-c2ccccc2)sc1C(=O)O	NS3 ATPase		IC50	5–20 µM
COc1cccc(-c2nc3ccc(-c4nc5cc(C(=O)O)ccc5n4C4CCCCC4)cc3nc2-c2cccc(OC)c2)c1	NS5B polymerase	100 µM	inhibition	98.18%
CN(CC(=O)O)C(=O)c1cc2nc(-c3ccc(Cl)cc3)cc(-c3ccc(Oc4ccccc4)cc3)n2n1	RNA-dependent RNA polymerase		IC50	1–10 µM
CC(C)C[C@@]1(C(=O)O)C[C@H](c2nc3ccccc3s2)[C@H](c2nccs2)N1C(=O)c1ccc(C(C)(C)C)c(Br)c1	RNA-dependent RNA polymerase		IC50	<50 µM
O=C(O)CCCC(=O)N[C@H](C(=O)N[C@@H](CCC(=O)O)C(=O)N[C@@H](Cc1ccc2ccccc2c1)C(=O)N[C@@H](CS)C(=O)O)C1CCCCC1	Nonstructural protein 3 NTPase/helicase	1.67 µM	inhibition	37%
O=C(O)c1sc(-c2ccccc2)cc1NS(=O)(=O)c1ccccc1Cl	NS3 ATPase		IC50	5–20 µM
O=C(NC(Cc1c[nH]c2ccc(O)cc12)C(=O)O)c1ccc2c(c1)nc(-c1ccc3ncc(-c4ccccc4)nc3c1)n2C1CCCCC1	NS5B polymerase	100 µM	inhibition	99.25%
CC(C)C[C@@]1(C(=O)O)C[C@@H](c2ncno2)[C@H](c2nccs2)N1C(=O)c1ccc(C(C)(C)C)cc1	RNA-dependent RNA polymerase		IC50	<50 µM
CCS(=O)(=O)Nc1cc(-c2ccccc2)sc1C(=O)O	NS3 ATPase		IC50	5–20 µM
CC(C)C[C@@]1(C(=O)O)C[C@@H](c2noc(=O)[nH]2)[C@H](c2nccs2)N1C(=O)c1ccc(C(C)(C)C)cc1	RNA-dependent RNA polymerase		IC50	<50 µM
COc1ccc(CCC2(C3CCCC3)CC(O)=C(Sc3nc(C)c(CC(=O)O)s3)C(=O)O2)cc1	Nonstructural protein 5B		IC50	<1 µM
CS(=O)c1ccc(-c2cnc3c(-c4nn[nH]n4)cnn3c2C2CCCCC2)cc1	RNA-dependent RNA polymerase		IC50	>10 µM
O=C(O)c1nc(-c2ccccc2O)[nH]c(=O)c1O	HCV polymerase		IC50	<100 µM
Cc1ccc(C(=O)N(Cc2ccccc2Cl)c2cc(-c3ccccc3)sc2C(=O)O)cc1	NS3 ATPase		IC50	<5 µM
CC[C@@H](C=O)NC(=O)[C@@H]1C[C@@H](OCc2ccccc2)CN1C(=O)[C@@H](NC(=O)[C@H](Cc1cnc[nH]1)NC(=O)c1cnccn1)C(C)C	NS3 protease		Ki	>100 µM
COc1cccc(COc2ccc(-c3cnc4c(-c5nn[nH]n5)cnn4c3C3CCCCC3)cc2)c1	RNA-dependent RNA polymerase		IC50	<1 µM
O=C(Nc1cccc(-c2nc(C(=O)O)c(O)c(=O)[nH]2)c1)NC1CCN(Cc2ccccc2)CC1	HCV polymerase		IC50	<100 µM
O=C(O)CCC(=O)N[C@H](C(=O)N[C@@H](CCC(=O)O)C(=O)N[C@@H](CCC(=O)O)C(=O)NC1(C(=O)O)CC1)C1CCCCC1	Nonstructural protein 3 NTPase/helicase		IC50	>83.5 µM
O=C(O)C(Cc1ccccc1)N(C(=O)c1ccc(Cl)cc1Cl)c1ccc(-c2cc3ccccc3o2)cc1	RNA-dependent RNA polymerase		IC50	<5 µM
O=C(O)c1sc(-c2ccccc2)cc1N(C(=O)c1ccc(Cl)cc1Cl)C1CC1	NS3 ATPase		IC50	<5 µM
O=C(O)c1nc(-c2cccc(CS(=O)(=O)c3ccc(Cl)cc3)c2)[nH]c(=O)c1O	HCV polymerase		IC50	<100 µM
CNC(=O)c1c(-c2ccc(F)cc2)oc2cc(N(C)S(C)(=O)=O)c(OCC(C)O)cc12	Nonstructural protein 5B		IC50	≤0.5 µM
COc1cccc(-c2csc(CN(C(=O)c3ccc(Cl)cc3Cl)C(Cc3ccccc3)C(=O)O)c2)c1	RNA-dependent RNA polymerase		IC50	<5 µM
CC(C)C[C@@]1(C(=O)O)C[C@H](c2nc(-c3ccc(F)cc3)no2)[C@H](c2nccs2)N1C(=O)c1ccc(C(C)(C)C)c(Br)c1	RNA-dependent RNA polymerase		IC50	<50 µM
CC[C@H](NC(=O)[C@H](CC(C)C)NC(=O)[C@@H](NC(=O)[C@@H](NC(=O)[C@H](CC(=O)O)NC(=O)[C@@H](N)CCC(=O)O)C(C)C)C(C)C)C(=O)c1nc2ccccc2o1	NS3 protease		Ki	1–100 µM
CC[C@H](C)C(NC(=O)c1ccc2c(c1)nc(-c1ccc3nc(-c4ccccc4)cnc3c1)n2C1CCCCC1)C(=O)O	NS5B polymerase	100 µM	inhibition	97.15%
CC(C)C[C@@]1(C(=O)O)C[C@H](c2nc(-c3ccc(F)cc3)no2)[C@H](c2nccs2)N1C(=O)c1ccc(C(C)(C)C)cc1	RNA-dependent RNA polymerase		IC50	<50 µM
CCCNC(=O)C(=O)[C@H](CC)NC(=O)[C@H](CC(C)C)NC(=O)[C@@H](NC(=O)[C@@H](NC(=O)c1cnccn1)C(C)C)C(C)C	NS3 protease		Ki	1–100 µM
Cc1onc(-c2c(Cl)cccc2Cl)c1CN(C(=O)c1ccc(Cl)cc1Cl)[C@@H](Cc1ccccc1)C(=O)O	RNA-dependent RNA polymerase		IC50	<5 µM
C=CCN(C(=O)Cc1ccc(C(F)(F)F)cc1)c1cc(-c2ccccc2)sc1C(=O)O	NS3 ATPase		IC50	>20 µM
CC[C@@H](C=O)NC(=O)[C@@H]1C[C@@H](NC(=O)c2ccc3ccccc3c2)CN1C(=O)[C@@H](NC(=O)[C@@H](NC(=O)c1cnccn1)C(C)C)C(C)C	NS3 protease		Ki	1–100 µM
CCCN(C(=O)c1ccc(Cl)cc1Cl)[C@@H](Cc1ccccc1)C(=O)O	RNA-dependent RNA polymerase		IC50	>20 µM

a–b is a range or a potency band. ICn: concentration for n% inhibition. Neighbouring rows are from separate reports. Percent inhibition refers to the dose given; in toxicity tests it is the harm to the cells.